Key:
[1] = target: SARS-CoV-2 Omicron variant BF.7 spike protein (SARS-CoV-2), P0DTC2; test: cell-based or functional assay
[2] = target: SARS-CoV-2 Omicron variant BA.4.6 spike protein (SARS-CoV-2), P0DTC2; test: cell-based or functional assay

Binder	IC50 (pseudovirus neutralization) [1] [µg/mL]	IC80 (pseudovirus neutralization) [1] [µg/mL]	IC50 (pseudovirus neutralization) [2] [µg/mL]	IC80 (pseudovirus neutralization) [2] [µg/mL]
MX1047 (bispecific antibody) chain 1: DTVMTQSPLSLPVTPGEPASISCRSSQSLLNSNGYNYLDWYVQKPGQSPQLLIYLGSNRASGVPDRFSGSGSGTDFTLKISRVEAEDVGVYYCMQPLQTPLFTFGPGTKVEIKGGSSGEIVLTQSPGTLSLSPGERATLSCRASQSVSSSYLAWYQQKPGQAPRLLIYSASSRATGIPDRFSGSGSGTDFTLTISRLEPEDFAVYFCQQYVGLTGWTFGQGTKVEIKGGGGSGGSGSGGGGSASGSGQMQLVQSGPEVKKPGTSVKVSCKASGFTFTSSAVQWVRQRQRLEWIGWIVVGSGNTNYAQKFQERVTITRDMSTSTAYMELSSLRSEDTAVYYCAAPNCSNVVCYDGFDIWGQGTMVTVSSGGSSGQVTLRESGPALVKPTQTLTLTCTFSGFSLSTRGVCVSWIRQPPGKALEWLAFIDWDDDKYYNTSLKTRLTISKDTSKNQVVLTMTNVHPVDTATYYCARISSHHGSSWCTTFDYWGQGALVTVSAASGGSGDKTHTCPPCPAPELLGGPSVFLFPPKPKDTLMISRTPEVTCVVVDVSHEDPEVKFNWYVDGVEVHNAKTKPREEQYNSYVVSVLTVLHQDWLNGKEYKCKVSNKALPAPIEKTISKAKGQPREPQVYTLPPSRDELTKNQVSLTCLVKGFYPSDIAVEWESNGQPENNYKTTPPVLDSDGSFFKKLTVDKSRWQQGNVFSCSVLHEALHSHYTQKSLSLSPG chain 2: EIVLTQSPGTLSLSPGERATLSCRASQSVSSSYLAWYQQKPGQAPRLLIYSASSRATGIPDRFSGSGSGTDFTLTISRLEPEDFAVYFCQQYVGLTGWTFGQGTKVEIKGGSSGQTVVTQEPSFSVSPGGTVTLTCGLSSGSVSTAYFPSWYQQTPGQAPRTLIYGTNTRSSGVPDRFSGSILGNKAALTITGAQADDESDYYCVLYMGRGIVVFGGGTKLTVLGGGGSGGSGSGGGGSASGSGQVQLVESGGGVVQPGRSLRLSCAASGFTLSSYGMHWVRQAPGKGLEWVAVISYDGSNKYYVDSVKGRFTISRDNSKNTLYLQMNSLRAEDTAVYYCRWAYWELLPDYYYGMDVWGQGTTVTVSSGGSSGQMQLVQSGPEVKKPGTSVKVSCKASGFTFTSSAVQWVRQRQRLEWIGWIVVGSGNTNYAQKFQERVTITRDMSTSTAYMELSSLRSEDTAVYYCAAPNCSNVVCYDGFDIWGQGTMVTVSSASGGSGDKTHTCPPCPAPELLGGPSVFLFPPKPKDTLMISRTPEVTCVVVDVSHEDPEVKFNWYVDGVEVHNAKTKPREEQYNSYVVSVLTVLHQDWLNGKEYKCKVSNKALPAPIEKTISKAKGQPREPQVYTLPPSRDELTKNQVSLTCLVKGFYPSDIAVEWESNGQPENNYKTTPPVLDSDGSFFKKLTVDKSRWQQGNVFSCSVLHEALHSHYTQKSLSLSPG	0.00437	0.0193	0.00711	0.0172
MX1049 (bispecific antibody) EIVLTQSPGTLSLSPGERATLSCRASQSVSSSYLAWYQQKPGQAPRLLIYSASSRATGIPDRFSGSGSGTDFTLTISRLEPEDFAVYFCQQYVGLTGWTFGQGTKVEIKGGSSGDTVMTQSPLSLPVTPGEPASISCRSSQSLLNSNGYNYLDWYVQKPGQSPQLLIYLGSNRASGVPDRFSGSGSGTDFTLKISRVEAEDVGVYYCMQPLQTPLFTFGPGTKVEIKGGGGSGGSGSGGGGSASGSGQVTLRESGPALVKPTQTLTLTCTFSGFSLSTRGVCVSWIRQPPGKALEWLAFIDWDDDKYYNTSLKTRLTISKDTSKNQVVLTMTNVHPVDTATYYCARISSHHGSSWCTTFDYWGQGALVTVSAGGSSGQMQLVQSGPEVKKPGTSVKVSCKASGFTFTSSAVQWVRQRQRLEWIGWIVVGSGNTNYAQKFQERVTITRDMSTSTAYMELSSLRSEDTAVYYCAAPNCSNVVCYDGFDIWGQGTMVTVSSASGGSGDKTHTCPPCPAPELLGGPSVFLFPPKPKDTLMISRTPEVTCVVVDVSHEDPEVKFNWYVDGVEVHNAKTKPREEQYNSYVVSVLTVLHQDWLNGKEYKCKVSNKALPAPIEKTISKAKGQPREPQVYTLPPSRDELTKNQVSLTCLVKGFYPSDIAVEWESNGQPENNYKTTPPVLDSDGSFFKKLTVDKSRWQQGNVFSCSVLHEALHSHYTQKSLSLSPG	0.00468	0.0199	0.00519	0.0204

From patent US20240109955A1
